Measured data: PubChem BioAssay AID1259414 (Drosophila RNAi Screening Center, 2018)

Aim: 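Fly genes that alter Wolbachia amount inside host cells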 (primary screen)
Cells: Drosophila JW18 cells infected with Wolbachia
Reagent: long dsRNA against Drosophila genes, 0.25 µg dsRNA per well of a 384-well plate
Duration: 5 days
Challenge: cells persistently infected with Wolbachia before knock-down; no added drug
Detection: 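Automated imaging of bacterial rRNA staining divided by host cell count, reported as plate-normalised robust z-score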
Direction: Wolbachia per cell robust z: higher = more Wolbachia per host cell than the plate typical
Hit rule: 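Active if absolute robust z reaches 1.5 in two or more of three replicates, leaving out multi- or no-target dsRNAs, genes unexpressed in JW18 and A1 wells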
The screen tested about 24,000 reagents; shown is a random part of those that have a named target and a result. Of all reagents, about 1,210 (5%) got an active call. 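Inactive calls also include excluded dsRNAs with several or no targets, genes unexpressed in JW18, and well A1, regardless of score.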 Unmarked entries are inactive. A plus sign joins genes that one reagent is predicted to hit. Reagent sequences are not shown.

target | dsRNA | Wolbachia per cell robust z, rep 1 | Wolbachia per cell robust z, rep 2 | Wolbachia per cell robust z, rep 3
Zip102B | DRSC17155 | 0.197 | 0.476 | -3.47
Zip102B | DRSC26001 | -1.74 (active) | -2.12 | -1.39
Cpr67Fa1 + Cpr67Fa2 | DRSC28050 | 0.516 | -0.89 | -1.94
Scgalpha | DRSC03076 | -0.869 | 0.945 | -0.863
Scgalpha | DRSC29625 | 0.0619 | 1.02 | 0.274
Scgalpha | DRSC41263 | -1.75 | -1.63 | -3.21
Dpit47 | DRSC04985 | -0.975 | 0.654 | 0.348
Dpit47 | DRSC28888 | 0.824 | 0.485 | 1.36
Etfb | DRSC16324 | 0.941 | -0.452 | -6.22
Gr59f | DRSC04499 | -0.549 | 0.146 | 0.144
Gr59f | DRSC27044 | -0.329 | 0.0206 | 2.46
sick | DRSC02090 | 0.918 | 1.04 | 0.802
sick | DRSC02300 | 0.0759 | -0.18 | -0.0356
sick | DRSC02301 | 0.482 | 0.599 | 1.59
sick | DRSC02302 | 0.0532 | -6.02 | -1.42
sick | DRSC02306 | -1.05 | -0.0668 | 0.343
sick | DRSC28668 | -0.533 | -2.39 | -0.533
CG8778 | DRSC07264 | 0.197 | -0.293 | -1.95
P5CS | DRSC11831 | -1.42 | 0.541 | 0.538
P5CS | DRSC11832 | 0.932 | 1.24 | -0.124
CG5033 | DRSC07410 | 0.478 | -0.177 | -0.0214
CG5033 | DRSC27783 | -2.45 | -0.0165 | -0.166
Rpn13R | DRSC18404 | 0.327 | -1.11 | 0.375
Rpn13R | DRSC23628 | 0.52 | -1.67 | -0.607
nur | DRSC01342 | 1.46 | 0.964 | 0.252
nur | DRSC29629 | 0.337 | 1.04 | -0.524
hlk | DRSC05021 | -1.56 | -2.14 | -0.814
hlk | DRSC05022 | 0.184 | -0.313 | -0.0649
hlk | DRSC26150 | 0.877 | 0.806 | 0.0747
CtsL2 | DRSC06978 | -0.442 | -1.53 | 1
CG6569 | DRSC16067 | 0.46 | 0.429 | 0.177
CG14566 | DRSC11727 | 0.771 | 1.16 | 0.36
CG14566 | DRSC25467 | -0.443 | 0.397 | -0.714
SiaT | DRSC04494 | 0.161 | -0.0318 | -0.232
CG12091 | DRSC08251 | -0.307 | 0.23 | -1.95
CG12091 | DRSC24873 | -2.31 (active) | -2.92 | -9.1
CG12091 | DRSC41595 | 1.13 | 1.18 | 0.305

Hits, among the entries above:
target | dsRNA | Wolbachia per cell robust z, rep 1 | Wolbachia per cell robust z, rep 2 | Wolbachia per cell robust z, rep 3
Zip102B | DRSC26001 | -1.74 (active) | -2.12 | -1.39
CG12091 | DRSC24873 | -2.31 (active) | -2.92 | -9.1

The results go on:
target | dsRNA | Wolbachia per cell robust z, rep 1 | Wolbachia per cell robust z, rep 2 | Wolbachia per cell robust z, rep 3
Cap-G | DRSC06652 | -0.414 | 0.502 | 1
Cap-G | DRSC06653 | -0.673 | -0.0907 | -2.23
Cap-G | DRSC21805 | 1.16 | -0.177 | 0.385
CG4645 | DRSC19907 | -3.34 | 0.188 | 0.115
CG4645 | DRSC24802 | -1.91 | -0.161 | -0.243
CG42823 | DRSC37837 | -0.55 | -1.41 | -1.15
kz | DRSC18786 | 0.463 | -0.816 | -0.226
sm | DRSC05795 | 0.407 | -0.421 | -0.309
sm | DRSC07686 | 1.23 | -0.235 | 0.449
sm | DRSC40706 | -0.834 | 1.09 | 1.09
HDAC1 | DRSC08696 | 0.418 | 2.18 | -0.549
HDAC1 | DRSC40782 | 0.329 | 1.25 | 0.928
CG4679 | DRSC06880 | 0.727 | 0.575 | -2.56
CG4679 | DRSC28357 | 0.65 | -1.52 | 0.78
CG3630 | DRSC18499 | 1.07 | -0.637 | 1.92
CG3630 | DRSC28903 | -1.57 | 0.667 | -0.153
Pits | DRSC19385 | 0.396 | -1.23 | 0.775
Pits | DRSC25013 | -0.786 | 0.213 | -0.944
Rh7 | DRSC10529 | 0.712 | 0.05 | 0.601
Rh7 | DRSC28331 | -1.58 | 0.125 | 0.751
Jon25Biii | DRSC03115 | 0.415 | -0.326 | -1.49
Jon25Biii | DRSC25069 | -1.4 | -4.65 | -0.89
CG6426 | DRSC06985 | 0.87 | -0.512 | -0.0497
CG6225 | DRSC15996 | 0.635 | -0.0914 | -3.25
asrij | DRSC04175 | 1.69 | -0.139 | 1.05
CG7878 | DRSC16330 | 0.939 | 1.13 | 0.32
CG7878 | DRSC23990 | 0.374 | -0.452 | 1.39
Drat | DRSC06600 | 0.645 | -1.55 | -1.28
Csas | DRSC22390 | -4.08 | -4.53 | -2.09
CG32461 | DRSC11594 | 0.197 | -1.37 | -0.321
CG18265 | DRSC10310 | -0.37 | 1.04 | -0.853
